Pooled drug test results. Numbers come from NIAID ChemDB, via PubChem.

All rows: tests in culture; organism: Candida tropicalis; read-out: MIC

Blank or dashed fields: not listed here. Conditions beyond the fields shown may differ between rows.

smiles,strain or isolate,method,value
CCOC(=O)c1c(N)oc2ccc(O)cc12,KCCM 50662,broth dilution,25 µg/mL
O=C(NCCCCCCNC(=O)NNC(=O)c1ccccc1)NNC(=O)c1ccccc1,,,7.5 µg/mL
C[C@@H]1CC(=O)N(c2ccccc2)C1=O,CCC 131-2000,broth dilution / turbidity,62.5 µg/mL
Clc1ccc(C(Cn2ccnc2)NCc2ccc(-c3ccccc3)cc2)cc1,CBS 94 CA 44 CA 39,,2.1 µg/mL
CC1CC2=C(O1)c1ccccc1C(=O)C2=O,Clinical isolate,broth dilution,40.32 µg/mL
C[C@H]1N(C(=O)c2ccc(C(F)(F)F)cc2)CCO[C@@]1(Cn1cncn1)c1ccc(F)cc1F,Isolate 1,,>64 µg/mL
CC(=O)OC1C(=O)N(c2ccccc2)C1c1ccccc1,CP/K92,,88.96 µM
c1ccc(-c2ccc(CNC(Cn3ccnc3)c3ccccc3)cc2)cc1,CBS 94 CA 44 CA 27,,1.3 µg/mL
CO/N=C/C(C)(C)C(O)(Cn1cncn1)c1ccc(Cl)cc1,1525,visual reading,1 µg/mL
COC(=O)c1ccc(N2C(=O)C(OS(=O)(=O)c3ccc(C)cc3)C2c2ccc(OC)cc2)cc1,CP/K92,,11.6 µM
COC(=O)[C@H]1[C@@H]2C[C@@H](O[C@@H]3O[C@H](C)[C@@H](O)[C@H](N)[C@@H]3O)/C=C/C=C/C=C/C=C/C=C/C=C/C=C/[C@H](C)[C@@H](O)[C@H](C)[C@H](C)OC(=O)C[C@H](O)C[C@H](O)[C@@H](O)CC[C@H](O)C[C@H](O)C[C@](O)(C[C@@H]1O)O2,Isolate 93-231 fluconazole-resistant,,<0.25 µg/mL
CCOC(=O)C1C(=O)C=C(c2ccc(F)cc2)CC1c1ccc(C2CC(c3ccc(F)cc3)=CC(=O)C2C(=O)OCC)cc1,Clinical isolate,,12.5 µg/mL
CC1CC(=O)N(CCc2ccccc2)C1=O,CCC 131-2000,broth dilution / turbidity,125 µg/mL
C[C@@H](c1ncncc1F)[C@](O)(Cn1cncn1)c1ccc(F)cc1F,107,,0.06 µg/mL
O=C1C=CC[C@H](/C=C/c2ccccc2)O1,,broth dilution,>100 µg/mL
CCOC(=O)c1c(N)oc2c(C)cc(O)c(C)c12,KCCM 50662,broth dilution,25 µg/mL
CCCCCCCC/C=C\CCCCCCCC(=O)N[C@H](C(=O)N1C[C@H](C)C[C@H]1C(=O)N[C@H](C(=O)N[C@@H](CCO)C(=O)N[C@@H](C)C=O)C(C)C)[C@@H](C)O,ATCC 750,broth dilution / visual reading,0.5 µg/mL
CCCCCCCCCCCCCCCCn1cc[n+](C)c1,57A,broth dilution,0.014 µg/mL
O=C(CCn1ccnc1)c1cccc(C(O)c2ccc(Cl)cc2)c1,RTCC 1095,broth dilution,64 µg/mL
CC(=O)NNC(=O)NCCCCCCNC(=O)NNC(C)=O,,,7.5 µg/mL
C[C@H]1[C@H](O)[C@@H](C)/C=C/C=C/C=C/C=C/C=C/C=C/C=C/[C@H](O[C@@H]2O[C@H](C)[C@@H](O)[C@H](N)[C@@H]2O)C[C@@H]2O[C@](O)(C[C@@H](O)C[C@@H](O)CC[C@H](O)[C@@H](O)C[C@@H](O)CC(=O)O[C@H]1C)C[C@H](O)[C@H]2C(=O)O,MTCC 1406,absorbance,1 µg/mL
CCCCCCCCCCCCCC[C@@H]1CCCN1C,HB,,25 µg/mL
CCOc1ccc2nc3cc(N=C4NC(=O)/C(=C\c5ccc([N+](=O)[O-])cc5)S4)ccc3c(N)c2c1,ATCC 8302,broth dilution,500 µg/mL
C[C@H]1[C@H](O)[C@@H](C)/C=C/C=C/C=C/C=C/C=C/C=C/C=C/[C@H](O[C@@H]2O[C@H](C)[C@@H](O)[C@H](N)[C@@H]2O)C[C@@H]2O[C@](O)(C[C@@H](O)C[C@@H](O)CC[C@H](O)[C@@H](O)C[C@@H](O)CC(=O)O[C@H]1C)C[C@H](O)[C@H]2C(=O)O,750,broth dilution,0.06 µg/mL
Clc1ccc(C(Cn2ccnc2)NCc2ccc(-c3ccccc3)cc2)c(Cl)c1,CBS 94 CA 44 CA 41,,5.2 µg/mL
CCOC(=O)C1C(=O)C=C(c2ccc(C)cc2)CC1c1ccc(C2CC(c3ccc(C)cc3)=CC(=O)C2C(=O)OCC)cc1,Clinical isolate,,25 µg/mL
CCC(C)n1ncn(-c2ccc(N3CCN(c4ccc(OC[C@H]5CO[C@](Cn6cncn6)(c6ccc(Cl)cc6Cl)O5)cc4)CC3)cc2)c1=O,Clinical isolates,,0.306 µg/mL
C(=C\c1ccccc1)/CNC(Cn1ccnc1)c1ccccc1,CBS 94 CA 44 CA 45,,40 µg/mL
COC(=O)c1ccc(C[C@H](C(=O)OC)[C@@H](O)C(=O)OC)cc1,KKP 334,,1 µg/mL
O=C(CCn1ccnc1)c1cccc(O)c1,RTCC 1095,broth dilution,>64 µg/mL
O=c1cc(-c2ccc(O)c(O)c2)oc2cc(O)c([C@@H]3O[C@H](CO)[C@@H](O)[C@H](O)[C@H]3O)c(O)c12,ATCC 750,broth dilution,250 µg/mL
O=C1C(O)C(c2cccc3ccccc23)N1c1ccc(Br)cc1,CP/K92,,38.46 µM
Cc1n[nH]c(=O)n1CCCCCCn1c(C)n[nH]c1=O,,,3.75 µg/mL
Cc1ccc(N2C(=O)[C@@H](O)[C@H]2/C=C/c2ccccc2)cc1,CP/K92,,21.5 µM
O=C(CCn1ccnc1)c1cccc(C(O)c2ccc(Br)cc2)c1,RTCC 1095,broth dilution,64 µg/mL
COC(=O)c1ccc(N2C(=O)C(OC(C)=O)C2c2ccc(F)cc2)cc1,CP/K92,,8.4 µM
Clc1ccc(C(Cn2ccnc2)NCc2cccc3ccccc23)cc1,CBS 94 CA 44 CA 46,,43.3 µg/mL
C[C@@H]1CC(=O)N(Cc2ccccc2)C1=O,CCC 131-2000,broth dilution / turbidity,31.3 µg/mL
CCOC(=O)C1C(=O)C=C(c2ccccc2)CC1c1ccc(C2CC(c3ccccc3)=CC(=O)C2C(=O)OCC)cc1,Clinical isolate,,25 µg/mL
COc1cc(O)c2c(c1)C(=O)c1c(cc3c(c1O)-c1c(cc(C)c(C(=O)NC(CO)C(=O)O)c1O)[C@H](OC1OC(C)C(N(C)C)C(OC4OCC(O)C(O)C4O)C1O)[C@H]3O)C2=O,IFO 10241,,3.1 µg/mL
O=C1C(OS(=O)(=O)c2ccc([N+](=O)[O-])cc2)C(c2ccccc2)N1c1ccccc1,CP/K92,,7.04 µM
O=C(CCn1ccnc1)c1ccc(Cl)cc1,RTCC 1065,broth dilution,64 µg/mL
COC(=O)c1c(N)oc2ccc(O)cc12,KCCM 50662,broth dilution,25 µg/mL
OC(CCn1ccnc1)c1cccc(C(O)c2ccc(Br)cc2)c1,RTCC 1065,broth dilution,>64 µg/mL
c1ccc(C(Cn2ccnc2)NCc2cccc3ccccc23)cc1,CBS 94 CA 44 CA 32,,40 µg/mL
C[C@@H]([C@H](N)C(=O)N[C@H](C(=O)O)[C@H]1O[C@@H](n2ccc(=O)[nH]c2=O)[C@H](O)[C@@H]1O)[C@H](O)c1ccc(O)cn1,53,visual reading,>500 µg/mL
Cc1ccc(C(O)c2cccc(C(O)CCn3ccnc3)c2)cc1,RTCC 1065,broth dilution,>64 µg/mL
CCCC[C@@H](C)/C=C(C)/C=C(\C)C(=O)N/C(=C/[C@@](C)(O)/C=C/C=C/C=C/C(=O)NC1=C(O)CCC1=O)C(=O)[C@@H]1CO1,2,broth dilution,25 µM
CCC(C)CC(C)CCCCCCCCC(=O)N[C@H]1C[C@@H](O)[C@H](NCCN)NC(=O)[C@@H]2[C@@H](O)CCN2C(=O)[C@H]([C@H](O)CCN)NC(=O)[C@H]([C@H](O)[C@@H](O)c2ccc(O)cc2)NC(=O)[C@@H]2C[C@@H](O)CN2C(=O)[C@H]([C@@H](C)O)NC1=O,CLY545,,0.125 µg/mL
O=C(CCn1ccnc1)c1ccc2ccccc2c1,RTCC 1095,broth dilution,8 µg/mL

The first 4 rows once more:

smiles,strain or isolate,method,value
CCOC(=O)c1c(N)oc2ccc(O)cc12,KCCM 50662,broth dilution,25 µg/mL
O=C(NCCCCCCNC(=O)NNC(=O)c1ccccc1)NNC(=O)c1ccccc1,,,7.5 µg/mL
C[C@@H]1CC(=O)N(c2ccccc2)C1=O,CCC 131-2000,broth dilution / turbidity,62.5 µg/mL
Clc1ccc(C(Cn2ccnc2)NCc2ccc(-c3ccccc3)cc2)cc1,CBS 94 CA 44 CA 39,,2.1 µg/mL